B1: CR6323 (antibody, V domains shown)
VH: EVQLVESGAEVKKPGSSVKVSCKASGGTFSSYGISWVRQAPGQGLEWMGDIIGMFGSTNYAQNFQGRLTITADESTSTAYMELSSLRSEDTAVYYCARSSGYYPAYLPHWGQGTLVTVSS
VL: not shown
B2: CR6334 (antibody, V domains shown)
VH: EVQLVETGAEVKKPGSSVKVPCKSSGSPFRSNAVSWVRQAPGQGLEWVGGILGVFGSPSYAQKFQGRVTITADESTNTVHMELRGLRSEDTAVYYCARGPTYYYSYMDVWGKGTTVTVSS
VL: SYVLTQPPSESVAPGQTARITCGGNNIGRNSVHWYQQKPGQAPVLVVYDDSDRPSGIPERFSGSKSGNTATLIISRVEVGDEADYYCQVWHSSSDHYVFGTGTKVTVLG
B3: CR6343 (antibody, V domains shown)
VH: QVQLVQSGAEVKKPGSSVKVSCKASGVTFSYYAMSWVRQAPGQGLEWMGGISPMFGTTTYAQKFQGRVTITADDSTSTAYMEVRSLRSEDTAVYYCARSSNYYDSVYDYWGQGTLVTVSS
VL: B2 VL with S1Q, Y2S, L4V, N25H, R29S, D50N, K65N, I73T, V79A, H91G
B4: CR6344 (antibody, V domains shown)
VH: QVQLVQSGAEVKKPGSSVRVSCKASGSIFRNYAMSWVRQAPGQGLEWMGGIIAIFGTPKYAQKFQGRVTITADESTSTVYMELSGLRSEDTAMYYCARIPHYNFGSGSYFDYWGQGTLVTVSS
VL: TVLTQPPSVSGAPGQRVTISCTGSSSNIGAGYDVHWYQQLPGTAPKLLIYGNSNRPSGVPDRFSGSKSGTSATLGITGLQTGDEADYYCGTWDSSLSAYVFGTGTKVTVLG
B5: CR6262 (antibody, V domains shown)
VH: QVQLQQSGAEVKKPGSSVKVSCKVSGVIFSGSAISWVRQAPGQGLEWMGGISPLFGTTNYAQKFQGRVTITADQSTNTTYMEVNSLRYEDTAVYFCARGPKYYSEYMDVWGKGTTVTVSS
VL: DIQMTQSPSSLSASVGDRVTITCRASQGISSYLAWYQQKPGKVPTLLIYDASTLRSGVPSRFSGSGSATDFTLTISSLQPEDVATYYCQRYNSAPPITFGQGTRLEIKR
B6: CR6342 (antibody, V domains shown)
VH: QVQLVQSGAEVKKPGSSVKVSCKASGGFFSSYAISWVRQAPGQGLEWMGGVIPIFRTANYAQNFQGRVTITADEFTSYMELSSLRSDDTAVYYCARLNYHDSGTYYNAPRGWFDPWGQGTLVTVSS
VL: DIQMTQSPDSLAVSLGEKATINCKSSQSILNSSNNKNYLAWYQQKPGQPPKLLIYWASTRESGVPDRFSGSGSGTDFTLTISSLQAEDVAVYYCQQYYSSPPTFGQGTKVEIKR
B7: CR6328 (antibody, V domains shown)
VH: EVQLVESGAEVKKPGSSVKVSCKASGHIFSGYAISWVRQAPGQGLEWMGGIIPIFGTTNYAQKFQGRVTITADQSTSTAYMDLSNLRSEDTAVYYCARVKDGYCTLTSCPVGWYFDLWGRGTLVTVSS
VL: not shown
B8: CR6332 (antibody, V domains shown)
VH: QVQLVQSGAEVKKPGSSVKVSCKASGGPFRNFAINWVRQAPGQGLEWMGGIIAVFGTTKYAHKFQGRVTITADDSTNTAYMELGSLKSEDTAVYYCARGPHYYSSYMDVWGEGTTVTVSS
VL: DIQLTQSPSSLSASVGDRVTITCRASQGISTYLAWYQQKPGKVPKLLIYAASTLQSGVPSRFSGSGSGTDFTLTISSLQPEDVATYYCQKYNSAPSFGPGTKVDIKR
B9: CR6268 (antibody, V domains shown)
VH: QVQLVQSGAEVKKPGSSVKVSCKASGGTFSSYAISWVRQAPGQGLEWMGGIMGMFGTTNYAQKFQGRVTITADEFTSAAYMELRSLRSEDTAVYYCARSSGYYPEYFQDWGQGTLVTVSS
VL: QSVLTQPPSESVSPGQTASVTCSGHKLGDKYVSWYQQKPGQSPVLLIYQDNRRPSGIPERFIGSNSGNTATLTISGTQALDEADYYCQAWDSSTAVFGGGTKLTVLG
B10: CR6336 (antibody, V domains shown)
VH: B9 VH with V2M, M52F, T58A, R84S, R87G, V93M, E105Q
VL: EIVMTQSPGTLSLSPGQRATLSCRASQSVSSSYLAWYQQKPGQAPRLLMYGASSRATGIPDRFSGSGSGTDFTLTISRLEPEDFAVYYCQQYGSSSLTFGGGTKLEIKR
B11: CR6307 (antibody, V domains shown)
VH: QVQLVQSGGGLVKPGGSLRLSCAASGFTFSSYSMNWVRQAPGKGLEWVSSISSSSSYIYYVDSVKGRFTISRDNAKNSLYLQMNSLRAEDTAVYYCARGGGSYGAYEGFDYWGQGTLVTVSS
VL: EIVLTQSPGTLSLSPGERATLSCRASQRVSSYLAWYQQKPGQAPRLLIYGASTRAAGIPDRFSGSGSGTDFTLTISRLEPEDSAVYYCQQYGRTPLTFGGGTKVEIKR
B12: CR6257 (antibody, V domains shown)
VH: QVQLVQSGAEVKKPGSSVKVSCKASGGPFRSYAISWVRQAPGQGPEWMGGIIPIFGTTKYAPKFQGRVTITADDFAGTVYMELSSLRSEDTAMYYCAKHMGYQVRETMDVWGKGTTVTVSS
VL: QSALTQPAAVSGSPGQSITISCTGTSSDVGGYNYVSWYQQHPGKAPKLMIYEVSNRPSGVSNRFSGSKSGNTASLTISGLQAEDEADYYCSSYTSSSTYVFGTGTKVTVLG
B13: CR6325 (antibody, V domains shown)
VH: EVQLVESGAEVKKPGSSVKVSCKASGGTFSFYSMSWVRQAPGQGLEWMGGIIPMFGTTNYAQKFQGRVTITAVESTSTAYMEVSSLRSEDTAVYYCARGDKGIYYYYMDVWGKGTTVTVSS
VL: B12 VL with A9S, Y99L
B14: CR6272 (antibody, V domains shown)
VH: B1 VH with E1Q, V2M, E6Q, G33A, S35T, D50G, L68V, S100T, P108H
VL: B12 VL with A8R, A9S, I18V, E52D, N55K, S61P, N62D, Y99H

Substitutions are numbered along the chain they refer to.

For the first assay, the target named is recombinant HA, subtype H7 (A/Netherlands/219/03 (H7N7)) (influenza A virus A/Netherlands/219/03 …). Nature of the assay: ELISA, coated HA, IgG 5 µg/ml.
Consider B1, for which the “OD 492 nm” value is 0.15 OD 492 nm.
Regarding B2, the “OD 492 nm” value was 0.15 OD 492 nm.
Still for that read-out and setting: the value for B3 was 0.15 OD 492 nm.
Same read-out and setting: the value for B4 was 0.18 OD 492 nm; that for B5 was 0.17 OD 492 nm; that for B6 was 0.17 OD 492 nm.
Same read-out and setting: then B7, with 0.16 OD 492 nm; and B8, with 0.26 OD 492 nm.
Take B9: the “OD 492 nm” value amounted to 0.15 OD 492 nm.
Consider B10, for which the “OD 492 nm” value worked out at 0.18 OD 492 nm.
Still for that read-out and setting: then B11, with 0.22 OD 492 nm; and B12, with 0.16 OD 492 nm; and B13, with 0.17 OD 492 nm.
Still for that read-out and setting: the value for B14 was 0.15 OD 492 nm.

The target in a further assay is recombinant HA, subtype H9 (A/Hong Kong/1073/99 (H9N2)) (influenza A virus A/Hong Kong/1073/99 …). Nature of the assay: ELISA, coated HA, IgG 5 µg/ml.
Regarding B1, the “OD 492 nm” value was 2.27 OD 492 nm.
Take B2: the “OD 492 nm” value was found to be 1.82 OD 492 nm.
The same measure, in the same setting: the value for B3 was 1.88 OD 492 nm; that for B4 was 2.15 OD 492 nm; that for B5 was 1.93 OD 492 nm.
With B6, the “OD 492 nm” value was 2.13 OD 492 nm.
Turning to B7, the “OD 492 nm” value is 2.38 OD 492 nm.
B8: the “OD 492 nm” value came out at 2.11 OD 492 nm.
On the same count and under the same terms, then B9, with 2.16 OD 492 nm; and B10, with 2.02 OD 492 nm.
As to B11, the “OD 492 nm” value turned out to be 0.17 OD 492 nm.
With B12, the “OD 492 nm” value is 2.06 OD 492 nm.
The same measure, in the same setting: then B13, with 2.04 OD 492 nm; and B14, with 0.96 OD 492 nm.

The values above are taken from patent US20090311265A1 (CRUCELL HOLLAND B V, published 2009).
